Anti-infective test results gathered from many reports (values: NIAID ChemDB through PubChem).

Shared fields: growth or infection tests; organism: Mycobacterium smegmatis

Blank or dashed fields: not listed here. MIC50, MIC90 and the like: level of inhibition, or share of isolates inhibited. Neighbouring rows are from separate reports. Two numbers with a dash give a range or band. ECn is the concentration giving n% inhibition of infection, replication or growth.

compound	endpoint	changes	method	strain or isolate	value
CCCCCCCCC(O)[C@@H]1O[C@H]([C@H](O)CN)C(O)C1O	MIC		absorbance	mc2155	0.3 µM
COc1c(N2CC[C@H](N)C2)c(F)cc2c(=O)n(N)c(=O)n(C3CC3)c12	MIC99			WT	12.5 µg/mL
CCCC[C@@H](CN[C@@H](CN)CCCCNC)NCc1cccc2ccccc12	MIC		absorbance	mc2155	50 µM
O=C(O)c1cn2c(n1)CN(c1cc3c(=O)c(C(=O)O)c4n(c3cc1[N+](=O)[O-])CS4)CC2	MIC		agar	ATCC 14468	14.09 µM
CCSCCCCCCCCCCCCC#CC(=O)O	MIC99			mc22389	83.8 µM
CCCCCCCCC(O)[C@@H]1O[C@H]([C@H](O)CNC(=O)CCCC)C(O)C1O	MIC		absorbance	mc2155	1.2 µM
O=C(O)c1c2n(c3cc([N+](=O)[O-])c(N4CCN(Cc5ccc6c(c5)OCO6)CC4)cc3c1=O)CS2	MIC		agar	ATCC 14468	6.3 µM
CCCCCCCCCCCCCCSCC#CC(=O)O	MIC99			mc22389	>200 µM
CCCCCc1[nH]c2ccccc2c1C1=C(Br)C(=O)N(C)C1=O	MIC			SG987	12 µg/mL
CC1CN(c2cc3c(=O)c(C(=O)O)c4n(c3cc2[N+](=O)[O-])CS4)CC(C)O1	MIC		agar	ATCC 14468	63.87 µM
CCCCCCCCCN(C)CCN(C)C	EC50			ATCC 607	<60 µg/mL
COc1c(N2CC[C@@H](CN)C2)c(F)cc2c(=O)n(N)c(=O)n(C3CC3)c12	MIC99			G89C mutant	2.5 µg/mL
CCCCCCCCCCCCN(C)CCN(C)C	EC50			ATCC 607	<4 µg/mL
COc1c(N2C[C@@H]3CCCN[C@@H]3C2)c(F)cc2c(=O)n(N)c(=O)n(C3CC3)c12	MIC99			G89C mutant	6.25 µg/mL
CCCCCCSCCCCCCCCCCCCC#CC(=O)O	MIC99			mc2651	141 µM
CCC1CN(c2c(F)cc3c(=O)[nH]c(=O)n(C4CC4)c3c2OC)CCN1	MIC99			WT	100 µg/mL
O=C(O)c1c2n(c3cc(N4CCC(N5CCCCC5)CC4)c([N+](=O)[O-])cc3c1=O)CS2	MIC		agar	ATCC 14468 MC2	112 µM
CCCCCCCCCCCCCCCCC#CC(=O)O	MIC99			mc2155	34 µM
COc1ccccc1-c1[nH]c2ccccc2c1C1=C(Br)C(=O)NC1=O	MIC			SG987	12.5 µg/mL
COc1c(N2CC[C@@H](CN)C2)c(F)cc2c(=O)[nH]c(=O)n(C3CC3)c12	MIC99			G89C mutant	25 µg/mL
CSCC[C@H](NS(=O)(=O)c1ccc(C)cc1)C(=O)N/N=C/c1ccc([N+](=O)[O-])o1	MIC		broth dilution / visual reading	ATCC 607	63.8 µg/mL
COc1ccc(-c2[nH]c3ccccc3c2C2=C(Br)C(=O)NC2=O)cc1	MIC			SG987	13.1 µg/mL
NNC(=O)c1ccncc1	MIC		agar	ATCC 14468 MC2	45.57 µM
CCC1CN(c2c(F)cc3c(=O)n(N)c(=O)n(C4CC4)c3c2OC)CCN1	MIC99			A91V mutant	5 µg/mL
CCc1cc(C(N)=S)ccn1	MIC			MC^2 802	30 µg/mL
O=C(O)c1c2n(c3cc(F)c(N4CCN(C(=O)C5COc6ccccc6O5)CC4)cc3c1=O)CS2	MIC		agar	ATCC 14468	50.25 µM
COc1c(N2CCC(N)C2)c(F)cc2c(=O)c(C(=O)O)cn(C3CC3)c12	MIC99			G89C mutant	4 µg/mL
CC(NCCNC(C)c1ccccc1)c1ccccc1	EC50			ATCC 607	<250 µg/mL
CSCC[C@H](NS(=O)(=O)c1ccc(C)cc1)C(=O)N/N=C/c1ccc([N+](=O)[O-])cc1	MIC		broth dilution / visual reading	ATCC 607	>250 µg/mL
CCCCN(CCCC)CCN(C)C	EC50			ATCC 607	>250 µg/mL
CCCCCCCCCCCCCCC(=O)NC(CCC(=O)O)(CCC(=O)O)CCC(=O)O	MIC			mc155	54 µg/mL
O=C(O)c1cn2c(n1)CN(c1cc3c(cc1[N+](=O)[O-])c(=O)c(C(=O)O)c1n3CS1)CC2	MIC		agar	ATCC 14468 MC2	14.09 µM
CSCC[C@H](NS(=O)(=O)c1ccc(C)cc1)C(=O)N/N=C/c1ccc([N+](=O)[O-])s1	MIC		broth dilution / visual reading	ATCC 607	128.7 µg/mL
C=C1C2CCC(CO)[C@@]23CC[C@H](C3)C1(C)C	MIC	Lomefloxacin-resistant	agar diffusion	LomR5	25 µg/mL
O=C(O)c1c2n(c3cc(N4CCN(Cc5ccc6c(c5)OCO6)CC4)c([N+](=O)[O-])cc3c1=O)CS2	MIC		agar	ATCC 14468 MC2	6.3 µM
CSCC[C@H](NS(=O)(=O)c1ccc(C)cc1)C(=O)N/N=C/c1c(Cl)cccc1Cl	MIC		broth dilution / visual reading	ATCC 607	>250 µg/mL
CCCCCCCCCCC(CCCCCCCCCC)OC(=O)NC(CCC(=O)O)(CCC(=O)O)CCC(=O)O	MIC			mc155	27 µg/mL
CCCCCCCCO[C@@H]1OC(CO)[C@H](O)[C@H](O)C1O	MIC		absorbance	mc2155	>2 µM
CCCCCCCCCCCCCCCCCC#CC(=O)O	MIC99			mc2155	>200 µM
CC(C)(C)NC(=O)C1c2ccccc2CCN1c1cc2c(=O)c(C(=O)O)c3n(c2cc1F)CS3	MIC		agar	ATCC 14468	51.92 µM
CSCC[C@H](NS(=O)(=O)c1ccc(C)cc1)C(=O)N/N=C/c1ccc(Cl)cc1Cl	MIC		broth dilution / visual reading	ATCC 607	>250 µg/mL
CCCC[C@@H](CN[C@H](CN)CCN)NCc1cccc2ccccc12	MIC		absorbance	mc2155	25 µM
CCCCCCCCC(O)[C@@H]1O[C@H]([C@H](O)CNC(C)=O)C(O)C1O	MIC		absorbance	mc2155	>1.5 µM
O=C(O)c1c2n(c3cc(N4CCSCC4)c([N+](=O)[O-])cc3c1=O)CS2	MIC		agar	ATCC 14468 MC2	132 µM
NC1CCN(CCCCn2ccc(Nc3cc(C(=O)NC4CNC4)ccn3)nc2=O)CC1	MIC		turbidity		<8 µg/mL
CCCCCS(=O)CCCCCCCCCCC#CC(=O)O	MIC99			mc2155	>200 µM
CCCCCCCCCCCCCCCCCCCOC(=O)NC(CCC(=O)O)(CCC(=O)O)CCC(=O)O	MIC			mc155	5 µg/mL
CSCC[C@H](NS(=O)(=O)c1ccc(C)cc1)C(=O)NN	MIC		broth dilution / visual reading	ATCC 607	262.3 µg/mL
CC(C)(C)OC(=O)NC1C2CN(c3cc4c(=O)c(C(=O)O)c5n(c4cc3[N+](=O)[O-])CS5)CC21	MIC		agar	ATCC 14468	13.17 µM
NCCCNCc1ccnc(Nc2ccn(CCOCCN3CCC(N)CC3)c(=O)n2)c1	MIC		turbidity		32–128 µg/mL
CCCc1[nH]c2ccccc2c1C1=C(Br)C(=O)NC1=O	MIC			SG987	8.3 µg/mL
CCCCCCCCCCCCCC#CCC#CC(=O)O	MIC99			mc22389	172.3 µM
NCCCNCc1ccc(Nc2nc(=O)n(CCCCN3CCC(N)CC3)cc2F)nc1	MIC		turbidity		<8 µg/mL
CSCC[C@H](NS(=O)(=O)c1ccc(C)cc1)C(=O)N/N=C/c1ccc(-c2ccc([N+](=O)[O-])cc2)o1	MIC		broth dilution / visual reading	ATCC 607	>250 µg/mL
COc1c(N2CCNC(C)C2)c(F)cc2c(=O)c(C(=O)O)cn(C3CC3)c12	MIC		agar	ATCC 14468 MC2	2.08 µM
CSCC[C@H](NS(=O)(=O)c1ccc(C)cc1)C(=O)N/N=C/c1cc(-c2ccccc2)cs1	MIC		broth dilution / visual reading	ATCC 607	>250 µg/mL
NC1CCN(CCCCn2ccc(Nc3ccc(CNC4CCNCC4)cn3)nc2=O)CC1	MIC		turbidity		<8 µg/mL
O=C(O)c1c2n(c3cc(N4CCC(n5c(=O)[nH]c6cc(Cl)ccc65)CC4)c([N+](=O)[O-])cc3c1=O)CS2	MIC		agar	ATCC 14468 MC2	11.84 µM
CCCCc1[nH]c2ccccc2c1C1=C(Br)C(=O)N(C)C1=O	MIC			SG987	25 µg/mL
CN1CCN(c2cc3c(cc2[N+](=O)[O-])c(=O)c(C(=O)O)c2n3CS2)CC1c1ccccc1	MIC		agar	ATCC 14468 MC2	52.25 µM
CCCCCCCCCCCCCCCCCCCCCCCCCCCCCCOC(=O)NC(C)(CCC(=O)O)CCC(=O)O	MIC				70 µg/mL
NCCCNCc1ccc(Nc2ccn(CCCCN3CCC(N)CC3)c(=O)n2)nc1	MIC		turbidity		32–128 µg/mL

Repeating the final 7 entries:

compound | endpoint | changes | method | strain or isolate | value
CSCC[C@H](NS(=O)(=O)c1ccc(C)cc1)C(=O)N/N=C/c1cc(-c2ccccc2)cs1 | MIC |  | broth dilution / visual reading | ATCC 607 | >250 µg/mL
NC1CCN(CCCCn2ccc(Nc3ccc(CNC4CCNCC4)cn3)nc2=O)CC1 | MIC |  | turbidity |  | <8 µg/mL
O=C(O)c1c2n(c3cc(N4CCC(n5c(=O)[nH]c6cc(Cl)ccc65)CC4)c([N+](=O)[O-])cc3c1=O)CS2 | MIC |  | agar | ATCC 14468 MC2 | 11.84 µM
CCCCc1[nH]c2ccccc2c1C1=C(Br)C(=O)N(C)C1=O | MIC |  |  | SG987 | 25 µg/mL
CN1CCN(c2cc3c(cc2[N+](=O)[O-])c(=O)c(C(=O)O)c2n3CS2)CC1c1ccccc1 | MIC |  | agar | ATCC 14468 MC2 | 52.25 µM
CCCCCCCCCCCCCCCCCCCCCCCCCCCCCCOC(=O)NC(C)(CCC(=O)O)CCC(=O)O | MIC |  |  |  | 70 µg/mL
NCCCNCc1ccc(Nc2ccn(CCCCN3CCC(N)CC3)c(=O)n2)nc1 | MIC |  | turbidity |  | 32–128 µg/mL